PubChem BioAssay AID1259414 | Drosophila RNAi Screening Center – 2018

- Purpose: 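Fly genes that alter Wolbachia amount inside host cells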 (primary screen)
- System: Drosophila JW18 cells infected with Wolbachia
- Reagent: long dsRNA against Drosophila genes, 0.25 µg dsRNA per well of a 384-well plate
- Timing: 5 days
- Conditions: cells persistently infected with Wolbachia before knock-down; no added drug
- Measurement: 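Automated imaging of bacterial rRNA staining divided by host cell count, reported as plate-normalised robust z-score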
- Scale: Wolbachia per cell robust z: higher = more Wolbachia per host cell than the plate typical
- Active means: 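Hit when robust z is 1.5 or more, or -1.5 or less, in at least two of three replicates; excludes dsRNAs with several or no targets, genes not expressed in JW18 and well A1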
The deposit covers about 24,000 reagents; below is an unselected part of those that have a named target and a result. Of all reagents, about 1,210 (5%) are marked active. 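Inactive calls also include excluded dsRNAs with several or no targets, genes unexpressed in JW18, and well A1, regardless of score.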 Names joined by + are all predicted targets of the reagent.

gene | dsRNA | Wolbachia per cell robust z, rep 1 | Wolbachia per cell robust z, rep 2 | Wolbachia per cell robust z, rep 3 | call
CG32982 | DRSC02677 | -1.02 | 0.00482 | -0.589 | inactive
CG32982 | DRSC03269 | 0.0533 | 0.0151 | 0.665 | inactive
CG32982 | DRSC21912 | -2.53 | -0.824 | -1.21 | inactive
Npc2g | DRSC14296 | 1.15 | -0.128 | 1.47 | inactive
CG14183 | DRSC10182 | 0.763 | 0.684 | -0.579 | inactive
CG14095 | DRSC10098 | -1.75 | -0.792 | -0.644 | inactive
Ccm3 | DRSC15711 | 0.428 | -7.93 | -6.3 | active
Or65a | DRSC08808 | 0.673 | 0.679 | 2.01 | inactive
cnk | DRSC07595 | 0.863 | 0.714 | 0.367 | inactive
CR43361 | DRSC17206 | 0.462 | -0.16 | -0.125 | inactive
CR43361 | DRSC23926 | 1.63 | 1.39 | 1.07 | inactive
lbe | DRSC16985 | 0.575 | 0.854 | 0.378 | inactive
lbe | DRSC23597 | 0.673 | 0.852 | 0.346 | inactive
CR14033 | DRSC02358 | -0.648 | 0.479 | 0.466 | inactive
CR14033 | DRSC24988 | 0.65 | 0.366 | 0.33 | inactive
asRNA:CR42254 | DRSC06194 | 0.0702 | 0.341 | -0.745 | inactive
CG31955 | DRSC00285 | -2.61 | 0.0642 | 0.647 | inactive
CG34001 | DRSC38847 | 0.632 | 0.122 | 1.36 | inactive
CG42724 | DRSC12567 | 3.2 | -3.21 | 0.563 | inactive
CG42724 | DRSC22275 | -0.395 | -0.317 | -0.256 | inactive
CG42724 | DRSC25154 | -0.228 | -0.298 | 0.772 | inactive
CG42724 | DRSC30081 | 0.428 | -0.227 | -0.0557 | inactive
Chrac-14 + mus201 | DRSC03575 | 0.643 | -0.167 | -7.36 | inactive
E23 | DRSC00593 | 1.13 | 0.459 | -0.697 | inactive
E23 | DRSC25491 | -0.097 | -0.624 | 1.42 | inactive
CG3793 | DRSC01982 | -0.644 | -3.21 | -1.53 | active
Zn72D | DRSC11318 | -0.488 | -1.01 | -0.381 | inactive
SdhAL | DRSC10539 | -1.01 | 0.624 | -0.647 | inactive

In a second layout: results already given
| gene | dsRNA | Wolbachia per cell robust z, rep 1 | Wolbachia per cell robust z, rep 2 | Wolbachia per cell robust z, rep 3 | call |
| --- | --- | --- | --- | --- | --- |
| asRNA:CR42254 | DRSC06194 | 0.0702 | 0.341 | -0.745 | inactive |
| CG31955 | DRSC00285 | -2.61 | 0.0642 | 0.647 | inactive |
| CG34001 | DRSC38847 | 0.632 | 0.122 | 1.36 | inactive |
| CG42724 | DRSC12567 | 3.2 | -3.21 | 0.563 | inactive |
| CG42724 | DRSC22275 | -0.395 | -0.317 | -0.256 | inactive |
